# Experimental data published in article PMC5678585, “Screening a protein kinase inhibitor library against Plasmodium falciparum” (Malaria Journal, 2017).
# Tested on: Plasmodium falciparum 3D7
# Conditions: ratio of EC50 SYBR Green vs [3H]-hypoxanthine
# Experimental: Growth inhibition was quantified using a fluorescence assay utilizing the binding of SYBR Green I to double stranded DNA, which emits a fluorescent signal at 528 nm after excitation at 485 nm. The SYBR Green assay system was adapted to maximize robustness and to align with available automation systems. The Prestwick Library then used as a pilot screen to validate the performance of the optimized assay. […] Single point screens were carried out, and the potency of compounds of interest was determined in duplicate on two independent occasions. A 96-well [^3H]-Hypoxanthine incorporation assay was also developed as a secondary assay in order to validate key compounds from each hit series in an orthogonal platform.
# All data were processed using IDBS ActivityBase. […] The formula used to calculate Z’ is 1-3×(StDev_high+StDev_low)/ABS(Mean_high-Mean_low) .
# Two independent assays were run.
row,SMILES,Ratio fluorescent vs radiometric
1,Fc1ccc(-c2cc(Nc3ccncc3)nc(-c3ccccc3)n2)cc1 [Compound A0002],4
2,O=C(Nc1cccnc1)c1cn(-c2ccccc2)nc1-c1cccs1 [Compound A0003],4
3,O=C(Nc1cccnc1)c1cc(-c2cccnc2)nc2ccc(Br)cc12 [Compound A0004],2
